# The list shows a part of the results, in another mix than the full data. Records with an inconclusive call do not appear. Some salts or complexes appear as unconnected parts, following the source record. Activity calls are given as the source filed them. Rule as the data show it: active = activity change below about -60%; inconclusive = no clear call, values can overlap the other calls; inactive = above about -39%.
# Experiment: qHTS Assay for inhibitors of the human cytomegalovirus (HCMV)
# Details: HFF cells, HCMV-luciferase reporter, 72 h; at 57.5 µM; active compounds read low
# Text: NCGC Assay Overview: Infection with human cytomegalovirus (HCMV) continues to pose significant threats for pregnant women and immunocompromised hosts. HCMV causes serious morbidity and mortality in transplant recipients, and congenital HCMV is the leading infectious cause of mental retardation and deafness in children. In the 1990s, the annual costs associated with the disease burden of congenital CMV were estimated at around $2 billion. A HCMV vaccine is not available yet and HCMV therapies result in intolerable side effects and emergence of drug resistant viruses. […] Towards this goal we have developed and characterized a luciferase HCMV reporter that was initially used in 96 well plates and then optimized to 1536-well plates for utilization in screening of the MLSMR collection, the NGCG diversity collection and the NCGC Pharmaceutical Collection of approved and investigational drugs.
# NCGC Assay Protocol Summary:
# This is a cell-based assay for HCMV inhibition in HFFs cells. The screening used 2 compound doses and the HCMV-luciferase at MOI of 1 PFU/cell. Cells were treated and infected with HCMV. At 72 h post infection cell lysates were collected and luciferase activity was determined using the Glomax-Multi + Detection System (Promega, Madison, WI). Data were normalized to the controls for basal activity (buffer only) and known HCMV inhibitors Salinmoycin.
# 1536-well assay protocol for the assay:
# (1) Add 3 ul CMV/HFF cell culture. 1000 cells/well in DMEM nirmal media.
# (2) Incubate 16 hr at 37C.
# (3) Add 23 nl control compound, 10uM of Salinomycin.
# (4) Add 23 nl compounds in DMSO solution.
# (5) Add 3 ul CMV suspension. Final 1 puf/ul, Virus stock 2000pfu/ul
# (6) Incubate 72 hrs at 37C.
# (7) Add 4 ul OneGlo Luc Reagent.
# (8) Incubate 5 min at room temperature.
# % is scaled to controls: 0 for no effect and ±100 for the full control effect.
row,Structure (SMILES),"activity change, negative = inhibition"
1,CC(C)c1ccc(NC2CCN(C(=O)OC(C)(C)C)CC2)cc1,inactive: 30.2%
2,COc1ccc(CN(CCCl)CCCl)cc1Cl,inactive: -31.4%
3,CN(C)c1cccc(C(=O)NCC2(N3CCCCC3)CCCCC2)c1,inactive: 19.6%
4,O=[N+]([O-])c1cc([N+](=O)[O-])c(OC2CCCCC2O)c([N+](=O)[O-])c1 (centres undefined),inactive: -4.76%
5,COc1cc(OC)c(C(=O)NCC2(N(C)C)CCCCC2)cc1OC,inactive: 15.3%
6,CCN(CC)CCCNc1ccccc1[N+](=O)[O-].O=[N+]([O-])c1cc([N+](=O)[O-])c(O)c([N+](=O)[O-])c1,inactive: 11.8%
7,CCC(c1nnnn1C(C)(C)C)N1CCC(n2c(=O)[nH]c3ccccc32)CC1 (centres undefined),inactive: -12.8%
8,CCCCn1nnnc1C(c1ccnc2ccccc12)N1CCC(n2c(=O)[nH]c3ccccc32)CC1 (centres undefined),inactive: -35.1%
9,O=C(OC1CN2CCC1CC2)c1ccc([N+](=O)[O-])cc1 (centres undefined),inactive: 30.5%
10,O=C(NCC1(N2CCCCC2)CCCCC1)c1cncc(Br)c1,inactive: 0%
11,COc1ccc2c(c1O)-c1c(O)c(OC)cc3c1[C@H](C2)[N+](C)(C)CC3.O=[N+]([O-])c1cc([N+](=O)[O-])c([O-])c([N+](=O)[O-])c1[O-],inactive: 86.4%
12,CN1CCC(Nc2cccc(F)c2)CC1,inactive: 33%
13,O=[N+]([O-])c1cc([N+](=O)[O-])c(Nc2ccc(Cl)cc2)c([N+](=O)[O-])c1,active: -64.6%
14,Cc1ccc(C(=O)NCC2(N(C)C)CCCCC2)o1,inactive: -4.45%
15,CCCOc1ccc(C(=O)NCC2(N(C)C)CCCCC2)cc1OC,inactive: 16.9%
16,O=C(NCC1(N2CCOCC2)CCCCC1)c1ccccc1Br,inactive: 1.46%
17,CC(C)(C)n1nnnc1C(c1ccccc1OC(F)(F)F)N1CCC(n2c(=O)[nH]c3ccccc32)CC1 (centres undefined),inactive: -17.8%
18,O=C(NCC1(N2CCCCC2)CCCCC1)c1ccc(OC(F)F)cc1,inactive: -25.1%
19,CCN1CCC(Nc2ccc(Cl)cc2)CC1,inactive: 6.54%
20,N#CC1(Nc2ccccc2)CCN(CCc2ccccc2)CC1,inactive: -9.12%
21,O=c1[nH]c2ccccc2n1C1CCN(C(c2ccccc2OC(F)(F)F)c2nnnn2C2CCCC2)CC1 (centres undefined),inactive: -24%
22,CSc1ccc(C(=O)NCC2(N3CCOCC3)CCCCC2)cc1,inactive: -21.9%
23,CCOc1ccc(C(=O)NCC2(N3CCOCC3)CCCCC2)cc1,inactive: 5.6%
24,O=C(NCC1(N2CCCCC2)CCCCC1)c1cccc([N+](=O)[O-])c1,inactive: 7.6%

# — PubChem BioAssay AID1259415 (National Center for Advancing Translational Sciences (NCATS), 2018)
